Measurements reported in PubChem BioAssay AID1259414 (Drosophila RNAi Screening Center, 2018).
In all, the deposit lists about 24,000 reagents; shown is a random part of those that have a named target and a result. Of all reagents, about 1,210 (5%) were called active. 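Inactive calls also include excluded dsRNAs with several or no targets, genes unexpressed in JW18, and well A1, regardless of score.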 Reagents against one gene are numbered here.

- Assay: 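Host factors increasing or decreasing Wolbachia levels in cultured fly cells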 (primary screen)
- Cell system: Drosophila JW18 cells infected with Wolbachia
- Reagents: long dsRNA against Drosophila genes, 0.25 µg dsRNA per well of a 384-well plate
- Timing: 5 days
- Treatment: cells persistently infected with Wolbachia before knock-down; no added drug
- Read-out: 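Imaged fluorescence in situ signal for Wolbachia 23S rRNA per DAPI-counted host cell, given as a robust z-score within each plate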
- Scale: Wolbachia per cell robust z: higher = more Wolbachia per host cell than the plate typical
- Rule for the call: 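Active if absolute robust z reaches 1.5 in two or more of three replicates, leaving out multi- or no-target dsRNAs, genes unexpressed in JW18 and A1 wells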

{"Target gene":"nxf4 (GeneID 40884)","reagent no.":1,"Wolbachia per cell robust z, rep 1":0.758,"Wolbachia per cell robust z, rep 2":-0.864,"Wolbachia per cell robust z, rep 3":-0.71,"outcome":"inactive"}
{"Target gene":"nxf4 (GeneID 40884)","reagent no.":2,"Wolbachia per cell robust z, rep 1":-0.196,"Wolbachia per cell robust z, rep 2":-0.752,"Wolbachia per cell robust z, rep 3":-0.0471,"outcome":"inactive"}
{"Target gene":"Lar (GeneID 35259)","reagent no.":1,"Wolbachia per cell robust z, rep 1":-0.00248,"Wolbachia per cell robust z, rep 2":-0.0969,"Wolbachia per cell robust z, rep 3":-0.619,"outcome":"inactive"}
{"Target gene":"Lar (GeneID 35259)","reagent no.":2,"Wolbachia per cell robust z, rep 1":1.06,"Wolbachia per cell robust z, rep 2":-0.097,"Wolbachia per cell robust z, rep 3":0.838,"outcome":"inactive"}
{"Target gene":"CG40160 (GeneID 3354965)","reagent no.":1,"Wolbachia per cell robust z, rep 1":0.366,"Wolbachia per cell robust z, rep 2":0.461,"Wolbachia per cell robust z, rep 3":1.17,"outcome":"inactive"}
{"Target gene":"CG13983 (GeneID 33875)","reagent no.":1,"Wolbachia per cell robust z, rep 1":1.1,"Wolbachia per cell robust z, rep 2":0.0444,"Wolbachia per cell robust z, rep 3":0.557,"outcome":"inactive"}
{"Target gene":"CG13983 (GeneID 33875)","reagent no.":2,"Wolbachia per cell robust z, rep 1":0.807,"Wolbachia per cell robust z, rep 2":-0.296,"Wolbachia per cell robust z, rep 3":1.1,"outcome":"inactive"}
{"Target gene":"Gale (GeneID 38076)","reagent no.":1,"Wolbachia per cell robust z, rep 1":-0.654,"Wolbachia per cell robust z, rep 2":-0.439,"Wolbachia per cell robust z, rep 3":-1.74,"outcome":"inactive"}
{"Target gene":"CG12498 (GeneID 31272)","reagent no.":1,"Wolbachia per cell robust z, rep 1":0.433,"Wolbachia per cell robust z, rep 2":-0.267,"Wolbachia per cell robust z, rep 3":0.608,"outcome":"inactive"}
{"Target gene":"Cyt-c-d (GeneID 34995)","reagent no.":1,"Wolbachia per cell robust z, rep 1":-0.0325,"Wolbachia per cell robust z, rep 2":0.243,"Wolbachia per cell robust z, rep 3":-0.292,"outcome":"inactive"}
{"Target gene":"Cyt-c-d (GeneID 34995)","reagent no.":2,"Wolbachia per cell robust z, rep 1":0.745,"Wolbachia per cell robust z, rep 2":-1.4,"Wolbachia per cell robust z, rep 3":0.794,"outcome":"inactive"}
{"Target gene":"CG11550 (GeneID 43731)","reagent no.":1,"Wolbachia per cell robust z, rep 1":-0.0814,"Wolbachia per cell robust z, rep 2":0.777,"Wolbachia per cell robust z, rep 3":-1.71,"outcome":"inactive"}

Entries above whose gene name begins with L or l:
{"Target gene":"Lar (GeneID 35259)","reagent no.":1,"Wolbachia per cell robust z, rep 1":-0.00248,"Wolbachia per cell robust z, rep 2":-0.0969,"Wolbachia per cell robust z, rep 3":-0.619,"outcome":"inactive"}
{"Target gene":"Lar (GeneID 35259)","reagent no.":2,"Wolbachia per cell robust z, rep 1":1.06,"Wolbachia per cell robust z, rep 2":-0.097,"Wolbachia per cell robust z, rep 3":0.838,"outcome":"inactive"}
